Measurements as given in US11053196B2, “Substituted indoline derivatives as dengue viral replication inhibitors” (JANSSEN PHARMACEUTICALS, INC., priority 2017, dated 2021).

What follows are compounds tested on DENV-2 16681 strain (assay: DENV-2 antiviral assay (eGFP-labeled virus in Vero cells)). Conditions: SI=CC50/EC50, DENV-2 antiviral assay.
Format: cell-based, Dengue virus
Procedure: The antiviral activity of all the compounds of the invention was tested against the DENV-2 16681 strain which was labeled with enhanced green fluorescent protein (eGPF). The culture medium consists of minimal essential medium supplemented with 2% of heat-inactivated fetal calf serum, 0.04% gentamycin (50 mg/mL) and 2 mM of L-glutamine. Vero cells, obtained from ECACC, were suspended in culture medium and 25 μL was added to 384-well plates (2500 cells/well), which already contain the antiviral compounds. Typically, these plates contain a 5-fold serial dilution of 9 dilution steps of the test compound at 200 times the final concentration in 100% DMSO (200 nL). […] Finally, each plate contains wells which are assigned as virus controls (containing cells and virus in the absence of compound), cell controls (containing cells in the absence of virus and compound) and medium controls (containing medium in the absence of cells, virus and compounds). To the wells assigned as medium control, 25 μL of culture medium was added instead of Vero cells. Once the cells are added to the plates, the plates were incubated for 30 minutes at room temperature to allow the cells to distribute evenly within the wells. Next, the plates were incubated in a fully humidified incubator (37° C., 5% CO2) until the next day. Then, DENV-2 strain 16681, labeled with eGFP, was added at a multiplicity of infection (MOI) of 0.5.
Therefore, 15 μL of virus suspension was added to all the wells containing test compound and to the wells assigned as virus control. In parallel, 15 μL of culture medium was added to the medium and cell controls. Next, the plates were incubated for 3 days in a fully humidified incubator (37° C., 5% CO2). At the day of the read out, the eGFP fluorescence was measured using an automated fluorescence microscope at 488 nm (blue laser). Using an in-house LIMS system, inhibition dose response curves for each compound were calculated and the half maximal effective concentration (EC50) was determined. Therefore, the percent inhibition (I) for every test concentration is calculated using the following formula: I=100*(ST−SCC)/(SVC−SCC); ST, SCC and SVC are the amount of eGFP signal in the test compound, cell control and virus control wells, respectively. The EC50 represents the concentration of a compound at which the virus replication is inhibited with 50%, as measured by a 50% reduction of the eGFP fluorescent intensity compared to the virus control. The EC50 is calculated using linear interpolation (Table 1).
For COc1cc(NC(C(=O)N2CCc3ccc(OC(F)(F)F)cc32)c2ccc(Cl)cc2)cc(OCCCC(=O)O)c1 (single isomer, unassigned) [Compound 7B-D, 4-(3-((1-(4-chlorophenyl)-1-deuterio-2-oxo-2-(6-(trifluoromethoxy)indolin-1-yl)ethyl)amino)-5-methoxyphenoxy)butanoic acid], the SI was 584. COc1cc(NC(C(=O)N2CCc3c(C)cc(C(F)(F)F)cc32)c2ccc(Cl)cc2)cc(OCCCC(=O)O)c1 (racemic) [Compound 2, 4-(3-((1-(4-chlorophenyl)-2-(4-methyl-6-(trifluoromethyl)indolin-1-yl)-2-oxoethyl)amino)-5-methoxyphenoxy)butanoic acid] gave an SI of 32100. In the case of COc1cc(NC(C(=O)N2CCc3ccc(S(F)(F)(F)(F)F)cc32)c2ccc(Cl)cc2)cc(OCCCC(=O)O)c1 (racemic) [Compound 1, 4-(3-((1-(4-chlorophenyl)-2-oxo-2-(6-(pentafluoro-λ^6-sulfanyl)indolin-1-yl)ethyl)amino)-5-methoxyphenoxy)butanoic acid], the SI is reported as 19800. Work on COc1cc(NC(C(=O)N2CCc3c(C)cc(OC(F)(F)F)cc32)c2ccc(Cl)cc2)cc(OCCCC(=O)O)c1 (racemic) [Compound 4, 4-(3-((1-(4-chlorophenyl)-2-(4-methyl-6-(trifluoromethoxy)indolin-1-yl)-2-oxoethyl)amino)-5-methoxyphenoxy)butanoic acid] yielded an SI of 96000. For COc1cc(NC(C(=O)N2CCc3cc(F)c(C(F)(F)F)cc32)c2ccc(Cl)cc2)cc(OCCCC(=O)O)c1 (racemic) [Compound 3, 4-(3-((1-(4-chlorophenyl)-2-(5-fluoro-6-(trifluoromethyl)indolin-1-yl)-2-oxoethyl)amino)-5-methoxyphenoxy)butanoic acid], the SI was 22700. With COc1cc(NC(C(=O)N2CCc3ccc(OC(F)(F)F)cc32)c2ccc(Cl)cc2)cc(OCCCC(=O)O)c1 (single isomer, unassigned) [Compound 7A-D, 4-(3-((1-(4-chlorophenyl)-1-deuterio-2-oxo-2-(6-(trifluoromethoxy)indolin-1-yl)ethyl)amino)-5-methoxyphenoxy)butanoic acid] the SI was 118813. Compound COc1cc(NC(C(=O)N2CCc3ccc(OC(F)(F)F)cc32)c2ccc(F)cc2OC)cc(OCCCC(=O)O)c1 (racemic) [Compound 6, 4-(3-((1-(4-fluoro-2-methoxyphenyl)-2-oxo-2-(6-(trifluoromethoxy)indolin-1-yl)ethyl)amino)-5-methoxyphenoxy)butanoic acid] has an SI of 19500. In the case of COc1cc(NC(C(=O)N2CCc3ccc(OC(F)(F)F)cc32)c2ccc(Cl)cc2OCCO)cc(OCCCC(=O)O)c1 (racemic) [Compound 8, 4-(3-((1-(4-chloro-2-(2-hydroxyethoxy)phenyl)-2-oxo-2-(6-(trifluoromethoxy)indolin-1-yl)ethyl)amino)-5-methoxyphenoxy)butanoic acid], the SI is reported as 86800. In the case of COc1cc(NC(C(=O)N2CCc3cc(F)c(OC(F)(F)F)cc32)c2ccc(Cl)cc2)cc(OCCCC(=O)O)c1 (racemic) [Compound 5, 4-(3-((1-(4-chlorophenyl)-2-(5-fluoro-6-(trifluoromethoxy)indolin-1-yl)-2-oxoethyl)amino)-5-methoxyphenoxy)butanoic acid], the SI is reported as 90900. COc1cc(NC(C(=O)N2CCc3sc(C(F)(F)F)cc32)c2ccc(Cl)cc2)cc(OCCCC(=O)O)c1 (racemic) [Compound 10, 4-(3-((1-(4-chlorophenyl)-2-oxo-2-(2-(trifluoromethyl)-5,6-dihydro-4H-thieno[3,2-b]pyrrol-4-yl)ethyl)amino)-5-methoxyphenoxy)butanoic acid] showed an SI of 40900. Work on COc1cc(NC(C(=O)N2CCc3ccc(SC(F)(F)F)cc32)c2ccc(Cl)cc2)cc(OCCCC(=O)O)c1 (racemic) [Compound 11, 4-(3-((1-(4-chlorophenyl)-2-oxo-2-(6-((trifluoromethyl)thio)indolin-1-yl)ethyl)amino)-5-methoxyphenoxy)butanoic acid] yielded an SI of 43300. In the case of COc1cc(NC(C(=O)N2CCc3nc(OC)c(C(F)(F)F)cc32)c2ccc(Cl)cc2)cc(OCCCC(=O)O)c1 (racemic) [Compound 9, 4-(3-((1-(4-chlorophenyl)-2-(5-methoxy-6-(trifluoromethyl)-2,3-dihydro-1H-pyrrolo[3,2-b]pyridin-1-yl)-2-oxoethyl)amino)-5-methoxyphenoxy)butanoic acid], the SI is reported as 12600.
